Results of unrelated studies side by side (data: NIAID ChemDB).

Common to all: whole-cell or culture tests; agent: Mycobacterium tuberculosis

Inhibition is in % at the dose shown (toxicity tests: loss of growth or viability). Conditions beyond the fields shown may differ between rows. Blank or dashed fields: not listed here. MIC bound: limit read from a one-dose screen. MIC50, MIC90 and the like: level of inhibition, or share of isolates inhibited. Fold resistance has wild type as its base. ECn: concentration that inhibits the pathogen or its effect by n%.

compound,method,mutations,measure,dose,setting,strain,value
Cc1cc2c(c(Br)c1O)Oc1c(cc(C)c(O)c1Br)C21OC(=O)c2ccccc21,BACTEC,-,MIC bound,-,-,H37Rv,>12.5 µg/mL
Cc1ccc(C2=Nn3c(nnc3C(C)C)SC2)cc1,resazurin,-,MIC,-,-,Clinical isolate,4 µg/mL
CN(CCO)c1ccc2c(=O)n3c(nc2c1)C(=O)c1cc(F)ccc1-3,-,-,MIC,-,-,H37Rv,0.13 µg/mL
O=C(Nc1ccc(C(F)(F)F)cc1)c1cc(Cl)ccc1OP(=O)(c1ccccc1)c1ccccc1,-,-,MIC,-,7 d,My 331/88,1 µM
COc1ccc(OCC(=O)Nc2nonc2-c2ccc(OC)c(OC)c2)cc1,resazurin,-,MIC,-,-,18b,8 µg/mL
CO[C@H]1/C=C/O[C@@]2(C)Oc3c(C)c(O)c4c(O)c(c(/C=N/N5CCN(C6CCCC6)CC5)c(O)c4c3C2=O)NC(=O)/C(C)=C\C=C\[C@H](C)[C@H](O)[C@@H](C)[C@@H](O)[C@@H](C)[C@H](OC(C)=O)[C@@H]1C,-,-,Median MIC,-,-,H37Ra,0.0031 µg/mL
O=C(Nc1ccc(Br)cc1)c1cc(Cl)ccc1OP(=O)(OCc1ccccc1)OCc1ccccc1,-,-,MIC,-,14 d,My 331/88,16 µM
CC(C)(C)c1ccc(CSc2nc(=O)[nH]c3nc[nH]c23)cc1,-,-,MIC,-,-,H37Ra,>12.8 µg/mL
O=C1c2cc(Cl)ccc2OP(=O)(c2ccccc2)N1c1ccc(Cl)cc1,-,-,MIC,-,7 d,My 331/88,4 µM
Cc1ccc2c(N3CCOCC3)c(Cc3ccccc3)c(N3CCCCC3)nc2n1,BACTEC,-,inhibition,6.25 µg/mL,-,H37Rv,20%
O=C1c2cc(Br)ccc2OP(=O)(c2ccccc2)N1c1ccc(C(F)(F)F)cc1,-,-,MIC,-,14 d,7357/1998,1 µM
O=C1Nc2nc3ccccc3n2N=C2CCCC12,BACTEC,-,MIC bound,-,-,H37Rv,>12.5 µg/mL
CC(=O)c1csc(NC(=O)C2C3CC4CC(C3)CC2C4)n1,visual reading,-,MIC,-,-,H37Rv,>20 µM
O=C(NC(CO)(CO)CO)c1cccnc1,BACTEC,-,MIC bound,-,-,H37Rv,>12.5 µg/mL
CCOC(=O)c1ccc2nc(-c3ccc(C(F)(F)F)cc3)[nH]c2c1,resazurin / fluorescence,-,MIC,-,-,H37Rv,>100 µM
NC(=S)N/N=C/c1nc2c3cccnc3ccc2n1Cc1ccccc1,BACTEC,-,inhibition,12.5 µg/mL,-,H37Rv,40%
COc1ccccc1CSc1nc(=O)[nH]c2nc[nH]c12,-,-,MIC,-,-,H37Ra,>12.8 µg/mL
Cc1ccc(NC(=S)C#N)cc1Cl,BACTEC,-,inhibition,12.5 µg/mL,-,H37Rv,12%
O=C1c2cc(F)ccc2-n2c1nc1ccccc1c2=O,-,-,MIC,-,-,MDR 10038,<1 µg/mL
CC(=O)O[C@H]1C[C@@]2(C)[C@@H](C[C@@H](O)[C@H]3[C@@]4(C)CC[C@@H](O)[C@@H](C)[C@@H]4CC[C@@]32C)/C1=C(\CCC=C(C)C)C(=O)O,-,-,Mean MIC,-,-,H37Ra,3 µg/mL
CCOC(=O)c1ccc2c(c1)nc(-c1ccc(Br)cc1)n2CCN1CCCC1=O,resazurin / fluorescence,-,EC50,-,-,H37Rv,>100 µM
NC1=NC(c2cc(F)cc(F)c2)n2c(nc3ccccc32)N1,resazurin,-,MIC,-,-,18b,8 µg/mL
Nc1ccc(/C(=N/NC(=O)C(=O)N/N=C(\c2ccccc2)c2ccc(N)cc2)c2ccccc2)cc1,BACTEC,-,MIC bound,-,-,H37Rv,>12.5 µg/mL
FC(F)(F)c1ccccc1Nc1nc(C23CC4CC(CC(C4)C2)C3)cs1,visual reading,-,MIC,-,-,H37Rv,>20 µM
Cc1cccc2c(=O)n3c(nc12)C(=O)c1ccccc1-3,-,-,MIC,-,-,H37Rv,>5 µg/mL
O=C(Nc1ccc(Cl)cc1)c1cc(Cl)ccc1OP(=O)(c1ccccc1)c1ccccc1,-,-,MIC,-,7 d,My 331/88,4 µM
CCNc1oc(-c2ccc(S(=O)(=O)N3CCC(C)CC3)cc2)nc1C#N,resazurin,-,MIC,-,-,Clinical isolate,8 µg/mL
CC1=C(C(=O)Nc2cc(C)ccc2C)C(c2ccccc2O)C(C(=O)Nc2cc(C)ccc2C)=C(C)N1,-,-,inhibition,2.5 µg/mL,-,H37Rv,27%
O=C(NCCO)N1c2ccccc2Sc2ccccc21,resazurin,-,MIC,-,-,18b,8 µg/mL
O=c1nc(SCc2cccc(Br)c2)c2[nH]cnc2[nH]1,-,-,MIC,-,-,H37Ra,>12.8 µg/mL
CCOC(=O)c1ccc2c(c1)nc(-c1ccc(C(F)(F)F)cc1)n2CCN1CCCOC1,resazurin / fluorescence,-,EC90,-,-,H37Rv,44.46 µM
Nc1nnc2nc(CC(=O)Cc3ccccc3)c(CC(=O)Cc3ccccc3)nn12,BACTEC,-,inhibition,12.5 µg/mL,-,H37Rv,0%
O=C1c2cc(F)cc(F)c2-n2c1nc1ccccc1c2=O,-,-,MIC,-,-,MDR 10038,1 µg/mL
N[C@@H]1CONC1=O,-,-,Mean MIC,-,-,H37Ra,17 µg/mL
Cc1ccc(C2SCC(=O)N2NC(=O)c2ccncc2)s1,BACTEC,-,inhibition,0.5 µM,-,-,0%
O=C1c2cc(Cl)ccc2OP(=O)(c2ccccc2)N1c1ccc(C(F)(F)F)cc1,-,-,MIC,-,21 d,234/2005,1 µM
Cc1cccc(CSc2ccncc2)c1,-,-,MIC,-,-,H37Ra,>12.8 µg/mL
C=C(C)CC[C@H]1CN(c2ccn(N3CCOCC3)c2)C(=O)O1,-,-,MIC90,-,-,ATCC 35837 (ethambutol-resistant),>100 µM
CC1=C(C(=O)Nc2cccc([N+](=O)[O-])c2)C(c2ccc(Cl)cc2Cl)C(C(=O)Nc2cccc([N+](=O)[O-])c2)=C(C)N1,-,-,EC50,-,-,H37Rv,<2.5 µg/mL
N/N=C(/Cc1ccccc1)NNC(N)=S,BACTEC,-,MIC,-,-,H37Rv,≥12.5 µg/mL
O=C(Nc1nc(-c2ccccn2)cs1)c1ccccc1,visual reading,-,MIC,-,-,-,8 µM
O=C1c2c(Cl)cccc2-n2c1nc1ccccc1c2=O,-,-,MIC,-,-,H37Rv,1 µg/mL
CC1=C(C(=O)Nc2ccccc2Cl)C(c2ccc(Cl)cc2)C(C(=O)Nc2ccccc2Cl)=C(C)N1,-,-,EC50,-,-,H37Rv,>2.5 µg/mL
CCOC(=O)c1ccc2c(c1)nc(-c1ccc([N+](=O)[O-])cc1)n2CCN1CCCC1=O,resazurin / fluorescence,-,MIC,-,-,H37Rv,>100 µM
COCCOCc1ccc2c(c1)C(=O)c1nc3ccncc3c(=O)n1-2,-,-,MIC,-,-,H37Rv,0.13 µg/mL
CO[C@H]1/C=C/O[C@@]2(C)Oc3c(C)c(O)c4c(O)c(c(/C=N/N5CCN(C)CC5)c(O)c4c3C2=O)NC(=O)/C(C)=C\C=C\[C@H](C)[C@H](O)[C@@H](C)[C@@H](O)[C@@H](C)[C@H](OC(C)=O)[C@@H]1C,-,-,Mean MIC,-,-,H37Ra,0.006 µg/mL
CC1(C(=O)Nc2cccc(Cl)c2Cl)Cc2ccccc2C(=O)O1,resazurin,-,MIC,-,-,18b,8 µg/mL
COC(=O)C1=C(C(=O)OC)P2(C)(C)SC(=S)N2C1(c1ccccc1)c1ccccc1,BACTEC,-,MIC bound,-,-,H37Rv,>12.5 µg/mL
c1cc2c(s1)CCOC21CCN(Cc2ccc3c(c2)OCCO3)CC1,fluorescence,MmpL3: Val713Met,fold resistance,-,-,H37Rv,125
CC1COc2c(N3CCN(C)CC3)c(F)cc3c(=O)c(C(=O)O)cn1c23,BACTEC,-,MIC,-,-,SMI12,1 µg/mL
O=C1c2cc(I)ccc2-n2c1nc1ncccc1c2=O,-,-,MIC,-,-,10038RFLP:W (MDR),0.06 µg/mL
O=C1c2ccccc2-n2c1nc1ncccc1c2=O,-,-,MIC,-,-,H37Rv,1 µg/mL
Cc1cc(Cl)cc2c1-n1c(nc3ccccc3c1=O)C2=O,-,-,MIC,-,-,H37Rv,0.06 µg/mL
O=C(Nc1ccc(Br)cc1)c1cc(Cl)ccc1OP(=O)(Oc1ccccc1)c1ccccc1,-,-,MIC,-,7 d,My 331/88,4 µM
Nc1ccc2c(N3CCCCC3)cc(N3CCOCC3)nc2n1,BACTEC,-,EC50,-,-,H37Rv,>6.25 µg/mL
Cc1cc(C(=O)NNCc2ccccc2)no1,BACTEC,-,MIC,-,-,H37Rv,≥12.5 µg/mL
CCOC(=O)c1ccc2c(c1)nc(-c1ccc(OC(F)(F)F)cc1)n2CCN1CCCC1=O,resazurin / fluorescence,-,EC50,-,-,H37Rv,>100 µM
O=C1c2ccccc2-n2c1nc1ccc(Cl)cc1c2=O,-,-,MIC,-,-,MDR 10038,2 µg/mL
COc1cc2c(=O)[nH]c3cc(N)ccc3c2cc1N,BACTEC,-,MIC bound,-,-,H37Rv,>12.5 µg/mL
O=c1nc(SCc2ccccn2)c2[nH]cnc2[nH]1,-,-,inhibition,6.25 µg/mL,-,H37Rv,7%
COc1cc2c(cc1O)C(C)C(c1ccccc1)O2,BACTEC,-,inhibition,12.5 µg/mL,-,H37Rv,1%
O=C1c2ccccc2-n2c1nc1ccsc1c2=O,-,-,MIC,-,-,MDR 10038,5 µg/mL
O=C1c2ccoc2C(=O)c2oc(=O)ccc21,resazurin,-,inhibition,6.25 µg/mL,-,H37Rv,44%
CCOC(=O)c1ccc2c(c1)nc(-c1ccc(O)cc1)n2CCN1CCCOC1,resazurin / fluorescence,-,EC90,-,-,H37Rv,>100 µM
CN1CCN(c2ccc3c(=O)n4c(nc3c2)C(=O)c2cc(F)ccc2-4)CC1,-,-,MIC,-,-,H37Rv,0.13 µg/mL
c1ccc(-c2csc(Nc3ccc4ccccc4c3)n2)nc1,visual reading,-,MIC,-,-,H37Rv,2.9 µM
CCCCCCCCc1ccc2nc3n(c(=O)c2c1)-c1ccccc1C3=O,-,-,MIC,-,-,H37Rv,4 µg/mL
COc1ccc(OC)c(Sc2nc(Cl)nc3nc[nH]c23)c1.O,-,-,MIC90,-,-,H37Rv,>6.25 µg/mL
O=C(Nc1nc(-c2ccccn2)cs1)NC1CCCC1,visual reading,-,MIC,-,-,H37Rv,1.6 µM
COc1ccc2c(c1)C(=O)c1nc3ccccc3c(=O)n1-2,-,-,MIC,-,-,H37Rv,1 µg/mL
O=C1c2ccccc2-c2nc3ccccc3n21,resazurin,-,MIC,-,-,Clinical isolate,4 µg/mL
NNC(=O)c1ccncc1,resazurin / absorbance,inhA mutant isoniazid resistant,MIC,-,-,HUG.MB.3649,0.08 µg/mL
O=c1[nH]c2nc(N3CCNCC3)ccc2cc1-c1ccccc1,BACTEC,-,inhibition,6.25 µg/mL,-,H37Rv,11%
COc1ccc(C2=NNC(=O)C3NC(=O)C(C#N)=C(C(=O)NN)C23c2ccc(OC)cc2)cc1,BACTEC,-,MIC bound,-,-,H37Rv,>12.5 µg/mL
c1cc2c(N3CCOCC3)cc(N3CCOCC3)nc2nc1N1CCCCC1,BACTEC,-,EC50,-,-,H37Rv,>6.25 µg/mL
CCOC(=O)c1ccc2c(c1)nc(-c1ccc(C(F)(F)F)cc1)n2CCN1CCCC1=O,resazurin / fluorescence,-,EC90,-,-,H37Rv,>100 µM
CNc1ncnc2c([C@@H]3O[C@H](CO)[C@@H](O)[C@H]3O)[nH]nc12,BACTEC,-,inhibition,12.5 µg/mL,-,H37Rv,65%
c1ccc(CSc2ncccn2)cc1,-,-,MIC,-,-,H37Ra,>12.8 µg/mL
Nc1cc(=O)[nH]n1-c1ccccc1,BACTEC,-,inhibition,12.5 µg/mL,-,H37Rv,-2%
CC1=C(C(=O)Nc2ccccc2Cl)C(c2ccccc2O)C(C(=O)Nc2ccccc2Cl)=C(C)N1,-,-,inhibition,2.5 µg/mL,-,H37Rv,6%
COc1cccc2c1C(=O)c1c(O)c3c(c(O)c1C2=O)CC(O)(C(C)=O)CC3OC1CC(NCC2(O)OC(C(=O)NCCCN(C)C)C(O)C2O)C(O)C(C)O1,-,-,MIC,-,-,PZA-R,12.5 µg/mL
Cc1ccc(CSc2ccccn2)cc1,-,-,MIC,-,-,H37Ra,>12.8 µg/mL
Oc1ccccc1/C=N\N1C(=S)N(C23CC4CC(CC(C4)C2)C3)C(=Nc2ccccc2)C1=Nc1ccccc1,BACTEC,-,MIC bound,-,-,H37Rv,>12.5 µg/mL
Nc1ccc2c(N3CCCCC3)cc(N3CCCCC3)nc2n1,BACTEC,-,EC50,-,-,H37Rv,<6.25 µg/mL
COc1cc2c(cc1OC)C(NNC(C)=O)CCCC2,BACTEC,-,MIC,-,-,H37Rv,≥12.5 µg/mL
Cc1ccc(C(=O)CN2C(=O)COc3ccccc3C2=O)cc1,resazurin,-,MIC,-,-,Clinical isolate,8 µg/mL
CCCCCCCCc1ccc2c(c1)C(=O)c1nc3ccncc3c(=O)n1-2,-,-,MIC,-,-,TN1040RFLP:N (DRUG sensitive),≤0.015 µg/mL